Paper PMC6265350

Target: T1, MtrA Y102C~P (UniProt P9WGM7)
T1 sequence (looked up, limits assumed): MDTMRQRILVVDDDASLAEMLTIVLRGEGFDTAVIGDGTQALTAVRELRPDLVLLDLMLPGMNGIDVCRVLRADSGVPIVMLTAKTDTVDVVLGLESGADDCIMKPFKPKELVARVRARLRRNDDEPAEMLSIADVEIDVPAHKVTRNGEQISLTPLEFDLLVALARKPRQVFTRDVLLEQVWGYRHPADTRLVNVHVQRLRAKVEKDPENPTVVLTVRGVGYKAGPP
Assay: EMSA
Conditions: 50 mM Tris-HCl pH 7.5, 50 mM NaCl, 10 mM MgCl2, 10 mM CaCl2, […]; recombinant protein; protein details: MBP fusion; label: FAM; probe letters rebuilt from the primers and the genome; part of a longer molecule

CTTCAAGCTCCGTTTCTCACCGCGTCCTCATCACGGCCACCGCAACGCCAAATCACCATCAACCAGACAAGCACAGACCTGTGCACCATGCTGAGTAACTACCGTCTCGGACAGCAAATGGCCAGGTGGAGCCGCGTTTGCCTGATCCAGGCTCACGCGTGGCGAGCGTAACGCCACTGCGAA (double strand) [PbetP]
binding result: binds

Construct, isoform or probe ends are uncertain for at least one entry. At least one verdict was read from the data and is not stated in words by the source. Protein sequences can lack the tags named with them.
